# Screening data, single-dose tests

Source: ChEMBL document CHEMBL3988442, “University of Dundee, Small-Polar-MMV Screening Library” (2021).

Mtb cholesterol medium: 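Phenotypic screen: M. tuberculosis growth, cholesterol and DPPC medium, 4 days; the read-out is not stated. Compounds at 500 µM. The record gives no direction; compounds that gave an IC50 in retests scored well above the rest, so higher reads as more growth inhibition. Size under these conditions: about 18,000 compounds, about 900 of them at 50% or above in at least one test.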
Mtb glucose medium: 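Phenotypic screen: M. tuberculosis growth, glucose 7H9 medium, 3 days; the read-out is not stated. Compounds at 500 µM. Direction is inferred from retests: higher values go with more growth inhibition. Of about 18,000 compounds tested this way, about 1,400 (7.9%) reached 50% or more in at least one test.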

The filed quantity is “Percent Effect” (%). The controls that fix the scale are not given in the record; negative values are as filed. Many other results are left out here, so strong results are more common than in the screen. A dash means the value is not listed here; it may have been measured.

{"compound": "CC(N)C(=O)NCCN(C)C", "stereo": "configuration not stated", "Mtb glucose medium": 10.12}
{"compound": "CC(C)c1nnc(CNC(=O)NCC(F)(F)F)n1C", "Mtb glucose medium": -5.202}
{"compound": "COc1cccc(C(C)O)c1", "stereo": "configuration not stated", "Mtb glucose medium": 3.015}
{"compound": "CC(C)CCN1CCC(CNC(=O)NCCO)CC1", "Mtb cholesterol medium": -2.201}
{"compound": "CN(Cc1ccco1)S(=O)(=O)c1cnn(C)c1", "Mtb glucose medium": 18.58}
{"compound": "COC(CN)C1CC1", "stereo": "configuration not stated", "Mtb cholesterol medium": -5.229}
{"compound": "NC(=O)C1CCN(C(=O)Cc2ccsc2)CC1", "Mtb cholesterol medium": -34.68}
{"compound": "Cn1cc(CN2C(=O)c3ccccc3CS2(=O)=O)cn1", "Mtb glucose medium": 26.84}
{"compound": "O=C(c1csc(Br)c1)N1CCOCC1", "Mtb glucose medium": 21.77}
{"compound": "CCN(CC)Cc1ccc2c(c1)CNCCO2", "Mtb cholesterol medium": -25.16}
{"compound": "Cn1cc(CNC(=O)c2c(N)cnn2C)cn1", "Mtb glucose medium": 3.923}
{"compound": "Cc1nc(NCc2n[nH]c(=O)[nH]2)cc(C2CC(O)C2)n1", "stereo": "configuration not stated", "Mtb glucose medium": -3.883}
{"compound": "Cc1n[nH]c(C)c1S(=O)(=O)N1CCC2(CCNCC2)C1", "Mtb cholesterol medium": 14.19}
{"compound": "Cc1cccc(CCO)c1", "Mtb cholesterol medium": -9.599}
{"compound": "Cc1nc(CNC(=O)NCc2cc[nH]n2)cs1", "Mtb glucose medium": 6.946}
{"compound": "O=C(Cc1cccc(O)c1)NCCN1CC=CC1", "Mtb glucose medium": 13.26}
{"compound": "NC1CCCN(C2CCCCC2)C1=O", "stereo": "configuration not stated", "Mtb glucose medium": 25.04}
{"compound": "COc1cccc(NC(=O)CNC(C)(C)C)c1", "Mtb cholesterol medium": 3.591}
{"compound": "COC(=O)[C@@H]1C[C@@H](O)CN1Cc1ncc(C(C)(C)C)o1", "Mtb cholesterol medium": 72.93, "Mtb glucose medium": -13.03}
{"compound": "CN(CC1(O)CCCC1)c1ncccn1", "Mtb cholesterol medium": -2.927}
{"compound": "CN(C)c1nc(N)nc(COC(=O)c2ccsc2)n1", "Mtb glucose medium": -7.045}
{"compound": "CCOc1ccccc1N(C)C(=O)c1cnn(CC)c1", "Mtb cholesterol medium": 14.9}
{"compound": "CSC(C)C(=O)NCc1ccccn1", "stereo": "configuration not stated", "Mtb cholesterol medium": -18.74}
{"compound": "CC(C)CN1CCC(NCCSc2nnnn2C)CC1", "Mtb cholesterol medium": 4.069, "Mtb glucose medium": 4.744}
{"compound": "Cc1nc2ccccc2nc1SCC(=O)NCCCO", "Mtb glucose medium": 13.37}
{"compound": "O=C(CNc1cncc(Br)c1)N1CCCCC1", "Mtb glucose medium": -11.14}
{"compound": "Cc1cc(C(=O)OC(C)c2ccccn2)cc(O)n1", "stereo": "configuration not stated", "Mtb glucose medium": -38.4}

Once more, the final 3:

| Compound | Mtb cholesterol medium | Mtb glucose medium |
|---|---|---|
| `Cc1nc2ccccc2nc1SCC(=O)NCCCO` | - | 13.37 |
| `O=C(CNc1cncc(Br)c1)N1CCCCC1` | - | -11.14 |
| `Cc1cc(C(=O)OC(C)c2ccccn2)cc(O)n1` (configuration not stated) | - | -38.4 |